PubChem BioAssay AID624099 | ICCB-Longwood – 2012
The whole screen tested about 21,000 reagents; below is an unselected part. Over the whole deposit, 497 (2.4%) were called active. 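Higher z means weaker E2 silencing; only reporter increases were scored, and knock-downs that hurt cell survival may mask genuine repressor factors.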 Unmarked entries are inactive.

- Test: 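Knock-downs relieving repression by E2 of an HPV18 LCR luciferase reporter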 (primary screen)
- Cells: human C33A cervical carcinoma cells (HPV-negative) stably expressing BPV1 E2 and an HPV18 LCR luciferase reporter
- Reagent: siRNA pool against human genes, 40 nM
- Duration: 72 h
- Measurement: 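HPV18 LCR reporter light per well, converted to plate-wise z-scores that exclude control wells, and averaged over triplicate plates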
- Direction: mean z-score and z-score: higher = stronger reporter signal, weaker E2 silencing
- Call rule: 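Mean z ≥ 2 together with z ≥ 2 in two or more of the three replicates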

With knock-down of MUC3A, the screen gave mean z-score 1.3; z-score, replicate A = 1.03; z-score, replicate B = 1.05; z-score, replicate C = 1.83.
Against CHAC1 the deposit lists mean z-score -0.58; z-score, replicate A = -0.4; z-score, replicate B = -0.71; z-score, replicate C = -0.64.
TMTC1 scored mean z-score 1.5; z-score, replicate A = 1.56; z-score, replicate B = 1.16; z-score, replicate C = 1.79.
MUL1 showed mean z-score -0.36; z-score, replicate A = -0.84; z-score, replicate B = -0.43; z-score, replicate C = 0.17.
After knock-down of UBA1 the results were mean z-score 0.77; z-score, replicate A = 0.74; z-score, replicate B = 0.47; z-score, replicate C = 1.1.
SPACA5 scored mean z-score 0.01; z-score, replicate A = 0; z-score, replicate B = 0.2; z-score, replicate C = -0.16.
After knock-down of MYO3A the results were mean z-score 2.15 (active); z-score, replicate A = 2.02; z-score, replicate B = 2.11; z-score, replicate C = 2.32.
CYSRT1 showed mean z-score 1.97; z-score, replicate A = 2.02; z-score, replicate B = 1.88; z-score, replicate C = 2.02.
For SLC39A7, the entry reads mean z-score 0.63; z-score, replicate A = 0.9; z-score, replicate B = 0.55; z-score, replicate C = 0.43.
CELA2A scored mean z-score 0.38; z-score, replicate A = 0.77; z-score, replicate B = 0.15; z-score, replicate C = 0.21.
ISX gave mean z-score 0.1; z-score, replicate A = 0.09; z-score, replicate B = 0; z-score, replicate C = 0.21.
With knock-down of ZSCAN20, the screen gave mean z-score 0.02; z-score, replicate A = 0.1; z-score, replicate B = 0.14; z-score, replicate C = -0.18.
Silencing of IFRD2 gave: mean z-score 1.12; z-score, replicate A = 1.16; z-score, replicate B = 1.44; z-score, replicate C = 0.74.
CDK16 gave mean z-score 1.97; z-score, replicate A = 1.8; z-score, replicate B = 2.16; z-score, replicate C = 1.95.
Knock-down of MIP gave: mean z-score 0.15; z-score, replicate A = 0.73; z-score, replicate B = -0.36; z-score, replicate C = 0.08.
Depletion of GNAI2 came out at: mean z-score -1.8; z-score, replicate A = -1.71; z-score, replicate B = -1.98; z-score, replicate C = -1.72.
Silencing of CSNK1A1L came out at: mean z-score 0.15; z-score, replicate A = 0.05; z-score, replicate B = 0.15; z-score, replicate C = 0.24.
For MTUS1 the deposit lists mean z-score -1.07; z-score, replicate A = -1.18; z-score, replicate B = -1.09; z-score, replicate C = -0.95.

Laid out differently: 2 of the entries above
| target | mean z-score | z-score, replicate A | z-score, replicate B | z-score, replicate C |
| --- | --- | --- | --- | --- |
| MYO3A | 2.15 (active) | 2.02 | 2.11 | 2.32 |
| CYSRT1 | 1.97 | 2.02 | 1.88 | 2.02 |

The results go on.
After knock-down of CYB5D2, the screen gave mean z-score 0.65; z-score, replicate A = 1.13; z-score, replicate B = 0.48; z-score, replicate C = 0.33.
NBPF9 showed mean z-score -0.4; z-score, replicate A = -0.31; z-score, replicate B = -0.74; z-score, replicate C = -0.15.
Silencing of ATP7A resulted in: mean z-score 0.84; z-score, replicate A = 0.93; z-score, replicate B = 0.74; z-score, replicate C = 0.84.
Knock-down of CFAP90 gave: mean z-score 0.49; z-score, replicate A = 0.8; z-score, replicate B = 0.43; z-score, replicate C = 0.24.
After knock-down of SCN1B the results were mean z-score 0.66; z-score, replicate A = 0.65; z-score, replicate B = 0.62; z-score, replicate C = 0.71.
TOPBP1 showed mean z-score 0.8; z-score, replicate A = 0.66; z-score, replicate B = 0.77; z-score, replicate C = 0.96.
POFUT3 gave mean z-score -0.06; z-score, replicate A = -0.32; z-score, replicate B = 0.05; z-score, replicate C = 0.1.
With knock-down of ING2, the record shows mean z-score 0; z-score, replicate A = 0.18; z-score, replicate B = -0.03; z-score, replicate C = -0.15.
After knock-down of BAZ2B, the screen gave mean z-score 1.01; z-score, replicate A = 0.45; z-score, replicate B = 0.9; z-score, replicate C = 1.67.
